Target: H3N2 hemagglutinin (A/Victoria/361/2011) HA trimer (influenza A virus A/Victoria/361/2011 (H3N2))
Assay: cryo-EM structure

Question: With “H3N2 hemagglutinin (A/Victoria/361/2011) HA trimer (natural protein)” as the substance, how does the stoichiometry N read?
Answer: 3

Reference: paper PMC8201785, “Sequence-Signature Optimization Enables Improved Identification of Human HV6-1-Derived Class Antibodies That Neutralize Diverse Influenza A Viruses” (2021)
